Results of unrelated studies side by side (data: NIAID ChemDB).

Shared fields: whole-cell or culture tests

a–b is a range or a potency band. A number after MIC or MFC names an inhibition level or a share of isolates. Percent inhibition refers to the dose given; in toxicity tests it is the harm to the cells. An empty or dashed field is not shown. ECn: concentration that inhibits the pathogen or its effect by n%. Zones are inhibition diameters on agar. Rows are shuffled and stem from different studies.

structure	strain or isolate	conditions	read-out	cell line	tested at	method	mutations	organism	result
CCn1ncc2c1C(=O)c1c(O)ccc(O)c1C2=O			inhibition		10 µM			Cryptosporidium parvum	<10%
CC(=O)c1ccc(N2CCN(c3ccc(C(C)=O)cc3)CC2)cc1			EC50			ATP		Pneumocystis carinii	>100 µg/mL
Cc1nc2ccc(Br)cc2c(=O)n1-c1nnc(-c2cccc(Cl)c2Cl)c(N)n1			EC50	E6SM		cytopathic effect		Vesicular stomatitis virus	>3.2 µg/mL
C(=N\Nc1ccccc1)/c1ccc(N2CCN(c3ccc(/C=N/Nc4ccccc4)cc3)CC2)cc1			EC50			ATP		Pneumocystis carinii	>100 µg/mL
CCCCCCCCCCCCCCCCOP(=O)(O)CO[C@H](CO)Cn1ccc(N)nc1=O			EC50	DAUDI		hybridisation		Epstein-Barr virus	0.6 µM
OC(CCn1ccnc1)c1cccc(C(O)c2ccc(Br)cc2)c1	RTCC1248		MIC			broth dilution		Candida guilliermondii	64 µg/mL
Cc1ccc(S(=O)(=O)CNc2oc3[nH]c(=O)[nH]c(=O)c3c2-c2ccc(F)cc2)cc1			zone		100 µg/mL	agar diffusion / agar		Aspergillus oryzae	28 mm
COc1cc(Cc2cnc(-n3c(C)nc4ccc(Br)cc4c3=O)nc2N)cc(OC)c1OC			EC50	E6SM		cytopathic effect		Vesicular stomatitis virus	>80 µg/mL
NC(=NC1CCC1)c1ccc(N2CCN(c3ccc(C(N)=NC4CCC4)cc3)CC2)cc1			EC50			ATP		Pneumocystis carinii	0.058 µg/mL
Cn1ncc2c1C(=O)c1cccc(Br)c1C2=O			inhibition		100 µM			Cryptosporidium parvum	99%
Nc1nc2c(ncn2COCCO)c(=O)[nH]1			EC50	H-1				Epstein-Barr virus	<50 µM
Cc1ccc2oc(=S)n(-c3ccccc3)c(=S)c2c1	6509/96	14 d	MIC					Mycobacterium kansasii	2 µM
C[C@@]1(O)[C@H](O)[C@@H](COP(=O)(O)OP(=O)(O)OP(=O)(O)O)O[C@H]1n1ccc2c(N)ncnc21			EC50	VERO		neutral red		West Nile virus	4.5 µM
NNC(=O)c1ccc(N2CCN(c3ccc(C(=O)NN)cc3)CC2)cc1			EC50			ATP		Pneumocystis carinii	6.48 µg/mL
CC(C)Oc1ccccc1CNC(=O)c1ccc2cnccc2n1	14702 (TYPE 3)		EC50	MA-104		cytopathic effect		Parainfluenza virus	28.1 µM
CCCCCCCC/C=C\CCCCCCCOCCOP1(=O)CO[C@@H](Cn2ccc(N)nc2=O)CO1			EC50	DAUDI		hybridisation		Epstein-Barr virus	0.06 µM
O=C(CCn1ccnc1)c1ccc(Cl)cc1	RTCC1248		MIC			broth dilution		Candida guilliermondii	>64 µg/mL
Cc1[nH]nc2c1C(=O)c1c(O)ccc(O)c1C2=O			inhibition		100 µM			Cryptosporidium parvum	90%
CCCCCCCCCCCCCCCCCOC[C@H](COP1(=O)CO[C@@H](Cn2ccc(N)nc2=O)CO1)OCc1ccccc1			EC50	DAUDI		hybridisation		Epstein-Barr virus	>1 µM
NC1=NCCN1CC(=O)O			EC50	MRC-5		plaque count		Simian cytomegalovirus	5900 µM
Cc1nc(N2CCC[C@H]2COC(C)C)nc(-n2ccnc2)c1[N+](=O)[O-]			inhibition		0.6 µM	plaque count		Cytomegalovirus	99.9%
Cc1ccc2oc(=S)n(-c3cccc(F)c3)c(=S)c2c1	My 235/80	14 d	MIC					Mycobacterium kansasii	16 µM
Cc1ccc(S(=O)(=O)CNc2oc3[nH]c(=O)[nH]c(=O)c3c2-c2ccc(Cl)cc2)cc1			zone		50 µg/mL	agar diffusion / agar		Aspergillus oryzae	14 mm
CC(C)(O)c1cn(-c2ccc([N+](=O)[O-])cc2)nn1	URM 4384		inhibition		2048 µg/mL	broth dilution		Candida albicans	0%
O=c1cnn([C@@H]2O[C@H](CO)[C@@H](O)[C@H]2O)c(=O)[nH]1	Caribbean (type 4)		EC50	LLC-MK2		plaque count		Dengue virus	<1 µg/mL
Cc1ccc(C(O)c2cccc(C(O)CCn3ccnc3)c2)cc1	RTCC1248		MIC			broth dilution		Candida guilliermondii	>64 µg/mL
O=C1c2cccc(O)c2C(=O)c2cn[nH]c21			inhibition		25 µM			Cryptosporidium parvum	<10%
Cc1cn([C@H]2O[C@@H](CO)[C@H](O)[C@H]2F)c(=O)[nH]c1=O			EC50	H-1				Epstein-Barr virus	<5 µM
Cc1ccc2oc(=O)n(-c3cccc(Cl)c3)c(=S)c2c1	6509/96	21 d	MIC					Mycobacterium kansasii	4 µM
CCCCCCCC/C=C\CCCCCCCCOCCOP(=O)(O)CO[C@H](CO)Cn1ccc(N)nc1=O			EC50	DAUDI		hybridisation		Epstein-Barr virus	0.03 µM
CCCCCCN=C(N)c1ccc(N2CCN(c3ccc(C(N)=NCCCCCC)cc3)CC2)cc1			EC50			ATP		Pneumocystis carinii	0.004 µg/mL
O=C(CCn1ccnc1)c1ccc2ccccc2c1	RTCC 1377		MIC			broth dilution		Candida guilliermondii	64 µg/mL
O=c1oc2ccc(Br)cc2c(=S)n1-c1ccc(Cl)cc1	My 235/80	21 d	MIC					Mycobacterium kansasii	8 µM
CC(N)C12CC3CC(CC(C3)C1)C2	H3N2 A/LYON/5389/88		EC50	MDCK		ELISA		Influenza A virus	0.039 µg/mL
Cc1cc(O)c2c(c1)C(=O)c1cc(O)c(O)c(O)c1C2=O			MIC100			visual reading	alcA::mdpE	Aspergillus nidulans	71–142 µM
CC(C)(O)c1cn(-c2cccc3ccccc23)nn1	URM 1059		inhibition		2048 µg/mL	broth dilution		Candida krusei	0%
CCc1nc(-n2c(C)nc3ccc(Br)cc3c2=O)nc(N)c1-c1ccc(Cl)cc1			EC50	E6SM		cytopathic effect		Vesicular stomatitis virus	>16 µg/mL
Cc1ccc(-n2cc(C(C)(C)O)nn2)cc1C	URM 4125		inhibition		2048 µg/mL	broth dilution		Candida albicans	0%
COc1ccc2oc(=O)n(-c3ccc(C)cc3)c(=S)c2c1	6509/96	14 d	MIC					Mycobacterium kansasii	8 µM
CCC(CC)[C@H](NC(C)=O)[C@@H]1[C@H](O)[C@@H](C(=O)O)C[C@H]1N=C(N)N	H1N1 A/Bayern/09/95		EC50	MDCK		visual reading		Influenza A virus	0.42 µM
Cc1ccc(S(=O)(=O)CNc2oc3[nH]c(=O)[nH]c(=O)c3c2-c2ccc([N+](=O)[O-])cc2)cc1			zone		50 µg/mL	agar diffusion / agar		Aspergillus oryzae	12 mm

For reference, 6 entries again:

| structure | strain or isolate | conditions | read-out | cell line | tested at | method | mutations | organism | result |
|---|---|---|---|---|---|---|---|---|---|
| Cc1cn([C@H]2O[C@@H](CO)[C@H](O)[C@H]2F)c(=O)[nH]c1=O |  |  | EC50 | H-1 |  |  |  | Epstein-Barr virus | <5 µM |
| CCCCCCCCCCCCCCCCCOC[C@H](COP1(=O)CO[C@@H](Cn2ccc(N)nc2=O)CO1)OCc1ccccc1 |  |  | EC50 | DAUDI |  | hybridisation |  | Epstein-Barr virus | >1 µM |
| Cc1[nH]nc2c1C(=O)c1c(O)ccc(O)c1C2=O |  |  | inhibition |  | 100 µM |  |  | Cryptosporidium parvum | 90% |
| C(=N\Nc1ccccc1)/c1ccc(N2CCN(c3ccc(/C=N/Nc4ccccc4)cc3)CC2)cc1 |  |  | EC50 |  |  | ATP |  | Pneumocystis carinii | >100 µg/mL |
| CC(C)(O)c1cn(-c2cccc3ccccc23)nn1 | URM 1059 |  | inhibition |  | 2048 µg/mL | broth dilution |  | Candida krusei | 0% |
| Cc1ccc2oc(=S)n(-c3cccc(F)c3)c(=S)c2c1 | My 235/80 | 14 d | MIC |  |  |  |  | Mycobacterium kansasii | 16 µM |